Laboratory results from US20230337678A1, “NITRIC OXIDE-RELEASING ANTIBACTERIAL COMPOUNDS, FORMULATIONS, AND METHODS PERTAINING THERETO” (KNOW BIO, LLC, priority 2020, published 2023).
Converted amounts (≈) assume the structure as drawn. “And” between values parts separate entries of the source, which are not always exact repeats. Identical values can stand only once.

Legend:
[1] = tested on: P. aeruginosa; test: Time kill assay in PBS or CAMHB
[2] = tested on: P. aeruginosa; test: Anti-microbial activity (MBC) under aerobic and anaerobic growth conditions, 21 strains; details: out of 21 strains tested; two could not be grown anaerobically
[3] = tested on: P. aeruginosa; test: MIC/MBC assays, CLSI method; type: cell-based, Pseudomonas aeruginosa
[4] = tested on: P. aeruginosa biofilms; details: exposure 18-24 h
[5] = tested on: Mycobacterium abscessus; test: MIC/MBC assays, CLSI method; type: cell-based
[6] = P. aeruginosa N0049, PAK, lab strain, Table 10, unit not given
[7] = Pseudomonas aeruginosa ATCC 19143
[8] = phenotype ATCC, obligate aerobe
[9] = phenotype Not MDR, CarbS, TobraS. Mucoid
[10] = phenotype PAK WT, batch VT-20-110
[11] = phenotype XDR, TobraR, CarbR. (strain of row r19)
[12] = phenotype XDR, TobraR, CarbR. (strain of row r21)
[13] = phenotype XDR, TobraR, CarbR. (strain of row r23)
[14] = M. abscessus N0010, clinical isolate, replicates 1 and 2
[15] = M. abscessus N0010, clinical, Table 14, unit not given
[16] = M. abscessus N0016, clinical isolate, replicates 1 and 2
[17] = M. abscessus N0016, clinical, Table 14, unit not given
[18] = M. abscessus N0017, clinical isolate, replicates 1 and 2, listed as VT-20-110, sodium salt

**Q.** Which “time to kill all bacteria” value ([1]; CAMHB, all doses greater than or equal to 0.125 mg/ml) does the source give for `[O-]/[N+](=N\O)C(/[N+]([O-])=N/O)/[N+]([O-])=N/O` here?
**A.** ≤ 8 h

**Q.** And the “kill of bacteria at the lowest two doses evaluated” value ([1]; CAMHB, survivors at 8 hours regrew by 24 hours)?
**A.** insufficient to kill all the bacteria

**Q.** And the eradication of bacteria ([1]; PBS and CAMHB, 37° C.)?
**A.** eradicated bacteria in a dose- and time-dependent manner

**Q.** And the bacteria titers ([1]; PBS buffer system, all concentrations of MD3 used)?
**A.** below the limit of detection

**Q.** And the “number of strains with identical activity under aerobic and anaerobic growth conditions” value [2]?
**A.** 18

**Q.** And the “MBC, rep 1” value ([3]; N0049, PAK WT (Table 9))?
**A.** 0.125 mg/mL (≈ 637 µM)

**Q.** What about the “MBC, rep 2” value ([3]; N0049, PAK WT (Table 9)) of the same molecule?
**A.** 0.125 mg/mL (≈ 637 µM)

**Q.** What about the “MIC, rep 1” value ([3]; N0049, PAK WT (Table 9)) of the same molecule?
**A.** 0.125 mg/mL (≈ 637 µM)

**Q.** And the “MIC, rep 2” value ([3]; N0049, PAK WT (Table 9))?
**A.** 0.0625 mg/mL (≈ 319 µM)

**Q.** And the MBC lower than the MBC of MD3 NO-lib (fold) ([3]; P. aeruginosa)?
**A.** 64 ×

**Q.** What about the “MBC, rep 1” value [3, 6] of the same molecule?
**A.** 0.125

**Q.** And the “MBC, rep 2” value [3, 6]?
**A.** 0.125

**Q.** And the “MIC, rep 1” value [3, 6]?
**A.** 0.125

**Q.** What about the “MIC, rep 2” value [3, 6] of the same molecule?
**A.** 0.0625

**Q.** What about the MBC [3, 7] of the same molecule?
**A.** 98 µg/mL (≈ 500 µM)

**Q.** And the MIC [3, 7]?
**A.** 49 µg/mL (≈ 250 µM)

**Q.** And the MBC ([3]; Pseudomonas aeruginosa ATCC 19143, listed as NCT-19-096, sodium salt)?
**A.** 49 µg/mL

**Q.** What about the “concentration resulting in a 3-log reduction of bacteria (MBC)” value ([3]; all 9 strains tested (Table 7)) of the same molecule?
**A.** 0.125 mg/ml

**Q.** What about the “MBC, rep 1” value [3, 8] of the same molecule?
**A.** 0.125 mg/mL (≈ 637 µM)

**Q.** And the “MBC, rep 2” value [3, 8]?
**A.** 0.125 mg/mL (≈ 637 µM)

**Q.** And the “MIC, rep 1” value [3, 8]?
**A.** 0.063 mg/mL (≈ 321 µM)

**Q.** What about the “MIC, rep 2” value [3, 8] of the same molecule?
**A.** 0.063 mg/mL (≈ 321 µM)

**Q.** And the “MBC, rep 1” value ([3]; phenotype MDR, CarbR, TobraR.)?
**A.** 0.125 mg/mL (≈ 637 µM)

**Q.** What about the “MBC, rep 2” value ([3]; phenotype MDR, CarbR, TobraR.) of the same molecule?
**A.** 0.125 mg/mL (≈ 637 µM)

**Q.** And the “MIC, rep 1” value ([3]; phenotype MDR, CarbR, TobraR.)?
**A.** 0.063 mg/mL (≈ 321 µM)

**Q.** And the “MIC, rep 2” value ([3]; phenotype MDR, CarbR, TobraR.)?
**A.** 0.125 mg/mL (≈ 637 µM)

**Q.** And the “MBC, rep 1” value [3, 9]?
**A.** 0.125 mg/mL (≈ 637 µM)

**Q.** And the “MBC, rep 2” value [3, 9]?
**A.** 0.125 mg/mL (≈ 637 µM)

**Q.** What about the “MIC, rep 1” value [3, 9] of the same molecule?
**A.** 0.063 mg/mL (≈ 321 µM)

**Q.** And the “MIC, rep 2” value [3, 9]?
**A.** 0.063 mg/mL (≈ 321 µM)

**Q.** And the “MBC, rep 1” value [3, 10]?
**A.** 0.125 mg/mL (≈ 637 µM)

**Q.** What about the “MBC, rep 2” value [3, 10] of the same molecule?
**A.** 0.125 mg/mL (≈ 637 µM)

**Q.** What about the “MIC, rep 1” value [3, 10] of the same molecule?
**A.** 0.125 mg/mL (≈ 637 µM)

**Q.** And the “MIC, rep 2” value [3, 10]?
**A.** 0.0625 mg/mL (≈ 319 µM)

**Q.** And the “MBC, rep 1” value ([3]; phenotype XDR, CarbR, TobraI.)?
**A.** 0.125 mg/mL (≈ 637 µM)

**Q.** What about the “MBC, rep 2” value ([3]; phenotype XDR, CarbR, TobraI.) of the same molecule?
**A.** 0.125 mg/mL (≈ 637 µM)

**Q.** What about the “MIC, rep 1” value ([3]; phenotype XDR, CarbR, TobraI.) of the same molecule?
**A.** 0.063 mg/mL (≈ 321 µM)

**Q.** What about the “MIC, rep 2” value ([3]; phenotype XDR, CarbR, TobraI.) of the same molecule?
**A.** 0.063 mg/mL (≈ 321 µM)

**Q.** What about the “MBC, rep 1” value ([3]; phenotype XDR, CarbR, TobraR.) of the same molecule?
**A.** 0.125 mg/mL (≈ 637 µM)

**Q.** What about the “MBC, rep 2” value ([3]; phenotype XDR, CarbR, TobraR.) of the same molecule?
**A.** 0.125 mg/mL (≈ 637 µM)

**Q.** And the “MIC, rep 1” value ([3]; phenotype XDR, CarbR, TobraR.)?
**A.** 0.063 mg/mL (≈ 321 µM)

**Q.** What about the “MIC, rep 2” value ([3]; phenotype XDR, CarbR, TobraR.) of the same molecule?
**A.** 0.063 mg/mL (≈ 321 µM)

**Q.** What about the “MBC, rep 1” value [3, 11] of the same molecule?
**A.** 0.125 mg/mL (≈ 637 µM)

**Q.** And the “MBC, rep 2” value [3, 11]?
**A.** 0.125 mg/mL (≈ 637 µM)

**Q.** And the “MIC, rep 1” value [3, 11]?
**A.** 0.063 mg/mL (≈ 321 µM)

**Q.** And the “MIC, rep 2” value [3, 11]?
**A.** 0.063 mg/mL (≈ 321 µM)

**Q.** And the “MBC, rep 1” value [3, 12]?
**A.** 0.125 mg/mL (≈ 637 µM)

**Q.** And the “MBC, rep 2” value [3, 12]?
**A.** 0.125 mg/mL (≈ 637 µM)

**Q.** And the “MIC, rep 1” value [3, 12]?
**A.** 0.063 mg/mL (≈ 321 µM)

**Q.** And the “MIC, rep 2” value [3, 12]?
**A.** 0.063 mg/mL (≈ 321 µM)

**Q.** What about the “MBC, rep 1” value [3, 13] of the same molecule?
**A.** 0.125 mg/mL (≈ 637 µM)

**Q.** What about the “MBC, rep 2” value [3, 13] of the same molecule?
**A.** 0.125 mg/mL (≈ 637 µM)

**Q.** What about the “MIC, rep 1” value [3, 13] of the same molecule?
**A.** 0.125 mg/mL (≈ 637 µM)

**Q.** And the “MIC, rep 2” value [3, 13]?
**A.** 0.063 mg/mL (≈ 321 µM)

**Q.** What about the “concentration sufficient to eradicate bacteria biofilms (>3-log reduction)” value [4] of the same molecule?
**A.** 0.391 mg/ml

**Q.** And the MBC [5, 14]?
**A.** 1 mg/mL (≈ 5100 µM)

**Q.** What about the MIC [5, 14] of the same molecule?
**A.** 0.25 mg/mL (≈ 1270 µM)

**Q.** And the MBC [5, 15]?
**A.** 1

**Q.** And the MIC [5, 15]?
**A.** 0.25

**Q.** And the MBC [5, 16]?
**A.** 1 mg/mL (≈ 5100 µM)

**Q.** What about the MIC [5, 16] of the same molecule?
**A.** 0.25 mg/mL (≈ 1270 µM)

**Q.** What about the MBC [5, 17] of the same molecule?
**A.** 1

**Q.** And the MIC [5, 17]?
**A.** 0.25

**Q.** What about the MBC [5, 18] of the same molecule?
**A.** 2 mg/mL and 1 mg/mL

**Q.** And the MIC [5, 18]?
**A.** 0.5 mg/mL and 0.25 mg/mL

**Q.** What about the MBC ([5]; M. abscessus N0017, clinical, Table 14, unit not given) of the same molecule?
**A.** 1
